Measured values from several laboratories, pooled; numbers as filed in NIAID ChemDB.

Shared fields: target-level tests; organism: Pneumocystis carinii

Blank or dashed fields: not listed here.

smiles,read by,tested at,endpoint,target,value
Nc1nc(N)c2c(ccc3cc(Cl)c(Cl)cc32)n1,-,-,IC50,Dihydrofolate reductase,0.73 µM
CN(Cc1cnc2nc(N)nc(N)c2n1)c1ccc(C(=O)N[C@@H](CCC(=O)N[C@@H](CCC(=O)N[C@@H](CCC(=O)N[C@@H](CCC(=O)O)C(=O)O)C(=O)O)C(=O)O)C(=O)O)cc1,-,-,IC50,Dihydrofolate reductase,0.000035 µM
CC(=CCC/C(C)=C/CO)CCCN(C)C,-,-,IC50,Oxidosqualene cyclase,>10 µM
COc1ccc2nc(NC(=O)Nc3ccc(Cl)c(Cl)c3)sc2c1,-,100 µM,inhibition,DHFR,24%
Nc1ccc(S(=O)(=O)Nc2ccc(Cl)nn2)cc1,-,-,Ki,DHPS,0.01 µM
COc1cc(Cc2cnc(N)nc2N)cc(OC)c1NS(=O)c1ccc(NC(C)=O)cc1,-,-,IC50,DHFR,31 µM
N=C(N)c1ccc2nc(CCc3nc4ccc(C(=N)N)cc4[nH]3)[nH]c2c1,-,-,IC50,Topoisomerase II,0.31–1.25 µM
O=C(O)c1c(Cl)c(Cl)c(Cl)c(Cl)c1C(=O)Nc1cccc(C(F)(F)F)c1,-,100 µM,inhibition,DHFR,>21%
Nc1nc(N)c2c(n1)CCc1c(Cl)cc(Cl)cc1-2,-,-,IC50,Dihydrofolate reductase,13 µM
N=C(N)c1ccc2nc(/C=C/c3nc4ccc(C(=N)N)cc4[nH]3)[nH]c2c1,-,-,IC50,Topoisomerase I,≤10 µM
O=C(O)c1cc2ccccc2c(Cc2c(O)c(C(=O)O)cc3ccccc23)c1O,-,-,IC50,DHFR,96 µM
Cc1ccc2c(ccc3nc(N)nc(N)c32)c1,-,-,IC50,Dihydrofolate reductase,0.46 µM
COc1ncnc(NS(=O)(=O)c2ccc(N)cc2)c1OC,HPLC,500 µM,inhibition,Oxidosqualene cyclase,42%
Nc1nc(N)c2c(n1)Cc1cc(Cl)c(Cl)cc1-2,-,-,IC50,Dihydrofolate reductase,23 µM
Nc1ccc(S(=O)(=O)N[n+]2ccccc2)cc1,-,-,IC50,DHPS,>10 µM
Nc1nc(N)c2nc(COc3ccccc3)cnc2n1,-,-,IC50,Dihydrofolate reductase,136 µM
CC(C)N=C(N)c1ccc2nc(/C=C\c3nc4ccc(C(N)=NC(C)C)cc4[nH]3)[nH]c2c1,-,-,IC50,Topoisomerase I,6.25 µM
CCc1nc(N)nc(N)c1-c1ccc(Cl)c(Cl)c1,-,-,IC50,Dihydrofolate reductase,1.1 µM
N=C(N)c1ccc(OCCCCCOc2ccc(C(=N)N)cc2)cc1,-,-,IC50,Dihydroorotate dehydrogenase,>10 µM
COc1cc(C(=O)N[C@@H](CCC(=O)O)C(=O)O)ccc1N(C)Cc1cnc2nc(N)nc(N)c2n1,-,-,IC50,Dihydrofolate reductase,0.00049 µM
Nc1nc(N)c2c(ccc3cc(Cl)ccc32)n1,-,-,IC50,Dihydrofolate reductase,0.43 µM
CCc1c(CNc2ccc(C(=O)NC(CC(=O)O)C(=O)O)cc2)ccc2nc(N)nc(N)c12,-,-,IC50,DHFR,0.0097 µM
CCOC(=O)c1ccc(NC(=O)Nc2cc(Cl)ccc2Oc2ccccc2)cc1,-,100 µM,inhibition,DHFR,17%
COc1ccc2c(c1)CCc1nc(N)nc(N)c1-2,-,-,IC50,DHFR,6.2 µM
N=C(N)c1ccc2nc(CCc3nc4ccc(C(=N)N)cc4[nH]3)[nH]c2c1,-,-,IC50,Topoisomerase I,3.1 µM
CCc1nc(N)nc(N)c1-c1ccc(N2CCCCC2)cc1,-,-,IC50,DHFR,12 µM
Nc1ccc(S(=O)(=O)Nc2ccccn2)cc1,-,-,IC50,DHPS,0.18 µM
Cc1cc(Cc2cnc(N)nc2N)cc2c1NN(C)C2,-,-,IC50,DHFR,18 µM
CC1(C)N=C(N)N=C(N)N1c1ccc(CCCCc2ccccc2)cc1,-,-,IC50,DHFR,0.31 µM
CNc1ccc(C(=O)NCCOc2cc(Cc3cnc(N)nc3N)cc(OC)c2Br)cc1,-,-,IC50,DHFR,10 µM
CN(Cc1cnc2nc(N)nc(N)c2n1)c1ccc(C(=O)NC(CCC(=O)NC(CCC(=O)O)C(=O)O)C(=O)O)cc1,-,-,IC50,Dihydrofolate reductase,0.0002 µM
COc1cc(Cc2cnc(N)nc2N)cc(OC)c1NC(=O)CC(=O)O,-,-,IC50,DHFR,100 µM
Nc1nc(N)c(-c2ccc(Cl)c(Cl)c2)c(COc2cccc3ccccc23)n1,-,-,IC50,DHFR,3.9 µM
CN(Cc1cnc2nc(N)nc(N)c2n1)c1ccc(C(=O)O)cc1,-,-,IC50,Dihydrofolate reductase,0.94 µM
Nc1nc(N)c2c(n1)CCCc1cc(Cl)c(Cl)cc1-2,-,-,IC50,Dihydrofolate reductase,1.3 µM
O=C(O)c1c(Cl)c(Cl)c(Cl)c(Cl)c1C(=O)N(c1ccccc1)c1ccco1,-,100 µM,inhibition,DHFR,12%
Nc1nc(N)c(-c2ccc(Cl)c(Cl)c2)c(COc2ccccc2)n1,-,-,IC50,DHFR,13.5 µM
c1cc2nc(CCCCc3nc4ccc(C5=NCCN5)cc4[nH]3)[nH]c2cc1C1=NCCN1,-,-,IC50,Topoisomerase II,0.31–1.25 µM
Cc1cc(NS(=O)(=O)c2ccc(N)cc2)no1,HPLC,-,Ki,Oxidosqualene cyclase,59 µM
CC1(C)N=C(N)N=C(N)N1c1ccc(CCC(=O)Nc2ccc(S(=O)(=O)F)cc2)cc1,-,-,IC50,DHFR,0.59 µM
Cc1cc2c(cc1C)-c1c(N)nc(N)nc1CC2,-,-,IC50,Dihydrofolate reductase,0.59 µM

Again, the opening 4 rows:

smiles	read by	tested at	endpoint	target	value
Nc1nc(N)c2c(ccc3cc(Cl)c(Cl)cc32)n1	-	-	IC50	Dihydrofolate reductase	0.73 µM
CN(Cc1cnc2nc(N)nc(N)c2n1)c1ccc(C(=O)N[C@@H](CCC(=O)N[C@@H](CCC(=O)N[C@@H](CCC(=O)N[C@@H](CCC(=O)O)C(=O)O)C(=O)O)C(=O)O)C(=O)O)cc1	-	-	IC50	Dihydrofolate reductase	0.000035 µM
CC(=CCC/C(C)=C/CO)CCCN(C)C	-	-	IC50	Oxidosqualene cyclase	>10 µM
COc1ccc2nc(NC(=O)Nc3ccc(Cl)c(Cl)c3)sc2c1	-	100 µM	inhibition	DHFR	24%

Two numbers with a dash give a range or band. ICn: concentration for n% inhibition. Rows are shuffled and stem from different studies. Inhibition is in % at the dose shown (toxicity tests: loss of growth or viability).